Compound potency records, mixed from different reports. Data source: NIAID ChemDB in PubChem.

Shared fields: cytotoxicity tests; cells: H9; measure: CC50

Lines come from different laboratories, so protocols vary. Blank or dashed fields: not listed here. CCn: concentration that lowers growth or viability of the cells by n%.

compound | method | value
COC(=O)[C@H]1CC[C@H]2[C@@H]3CCC4=CC(=O)CC[C@]4(C)[C@H]3CC[C@]12C | - | 15.3 µM
Nc1nc2c(ncn2[C@@H]2C[C@H](CO)[C@@H](O)[C@H]2O)c(=O)o1 | MTT | >500 µg/mL
CC(C)[C@H](NC(=O)OCCN1CCCC1)C(=O)N[C@@H](Cc1ccccc1)[C@@H](O)[C@H](Cc1ccccc1)NC(=O)[C@@H](NC(=O)OCc1ccccc1)C(C)C | trypan blue | 21 µM
CCc1cn([C@H]2C[C@H](N=[N+]=[N-])[C@@H](CO)O2)c(=O)[nH]c1=O | - | 75 µM
COc1c(OCc2ccccc2)c(OCc2ccccc2)cc(C=O)c1-c1c(C=O)cc(OCc2ccccc2)c(OCc2ccccc2)c1OC | - | 4 µM
CCCCCCCCCCCCCCCCNc1ccn([C@H]2C[C@H](OP(=O)(O)OC[C@H]3O[C@@H](n4cc(C)c(=O)[nH]c4=O)C[C@@H]3N=[N+]=[N-])[C@@H](CO)O2)c(=O)n1 | - | 120 µM
CC(C)[C@H](NC(=O)OCc1ccccc1)C(=O)N[C@@H](Cc1ccccc1)[C@H](O)[C@H](O)[C@H](Cc1ccccc1)NC(=O)OC(C)(C)C | trypan blue | 30 µM
Cc1cn([C@H]2C[C@H](F)[C@@H](CO)O2)c(=O)[nH]c1=O | - | >0.013 µM
[N-]=[N+]=N[C@@H]1C[C@H](n2ccc(=O)[nH]c2=O)O[C@@H]1CO | - | >100 µM
Cc1cn([C@H]2C[C@H](N=[N+]=[N-])[C@@H](CO)O2)c(=O)[nH]c1=O | - | >0.038 µM
COc1cc2c(cc1OC)[C@@H](Nc1ccc([N+](=O)[O-])cc1)[C@H]1COC(=O)[C@@H]1[C@@H]2c1cc(OC)c(O)c(OC)c1 | - | 0.158 µg/mL
Cc1cn([C@H]2C[C@H](N=[N+]=[N-])[C@@H](CO)O2)c(=O)[nH]c1=O | - | 500 µg/mL
CC1(C)O[C@@H]1COc1c2occc2cc2ccc(=O)oc12 | - | 20.1 µg/mL
CC(C)=CCC[C@@]1(C)[C@@H]2CC[C@]3(C)Oc4cc(C)c(C(=O)O)c(O)c4[C@H]1[C@H]23 | - | 34 µg/mL
O=c1[nH]cnc2c1ncn2[C@H]1CC[C@@H](CO)O1 | MTT | >500 µg/mL
Nc1nc(N)c2ncn(CCOCP(=O)(O)O)c2n1 | - | 17 µM
Cc1cn([C@H]2C[C@H](N=[N+]=[N-])[C@@H](CO)O2)c(=O)[nH]c1=O | - | 500 µg/mL
COc1ccc(Cc2nccc3cc(OC)c(OC)cc23)cc1OC | - | >40 µg/mL
COc1cc(N[C@@H]2c3cc4c(cc3[C@@H](c3cc(OC)c(O)c(OC)c3)[C@H]3C(=O)OC[C@@H]32)OCO4)c(C)cc1[N+](=O)[O-] | - | 38.7 µg/mL
CC(C)C(NC(=O)OCc1cccnc1)C(=O)N[C@@H](Cc1ccccc1)C(O)[C@H](Cc1ccccc1)NC(=O)C(NC(=O)OCc1cccnc1)C(C)C | trypan blue | >100 µM
Cc1cn([C@H]2C[C@H](N=[N+]=[N-])[C@@H](CO)O2)c(=O)[nH]c1=O | - | 30 µM
C/C=C(/C)C(=O)OC1c2cc3c(c(OC)c2-c2c(cc4c(c2OC)OCO4)C[C@H](C)[C@H]1C)OCO3 | - | 34 µg/mL
C[C@]12CC[C@H]3[C@@H](CCC4=CC(=O)CC[C@@]43C)[C@@H]1CC[C@@H]2C(=O)O | - | 67.3 µM
CC(C)(O)C(O)COc1c2ccoc2cc2oc(=O)ccc12 | - | 21.1 µg/mL
Nc1nc(N)c2ncn(CCOCP(=O)(O)O)c2n1 | - | 10.5 µM
CCCCCCCCCCCCCCCCCCCCCCOC[C@H](CO[C@]1(C(=O)O)C[C@H](OS(=O)(=O)O)[C@@H](NC(C)=O)[C@H]([C@H](OS(=O)(=O)O)[C@@H](COS(=O)(=O)O)OS(=O)(=O)O)O1)OCCCCCCCCCCCCCCCCCCCCCC | MTT | >200 µM
O=C(O)P(=O)(O)O | - | >50 µg/mL
CC(C)[C@H](NC(=O)OCc1ccccc1)C(=O)NC(Cc1ccccc1)C(O)C(Cc1ccccc1)NC(=O)[C@@H](NC(=O)OCc1ccccc1)C(C)C | trypan blue | 120 µM
COc1cc([C@@H]2c3cc4c(cc3[C@@H](O)[C@H]3COC(=O)[C@H]23)OCO4)cc(OC)c1OC(=O)OCc1ccccc1 | - | 0.201 µg/mL
CCCCCCCCCCCCCCCCCCCCCCOC[C@H](CO[C@@]1(C(=O)O)C[C@H](OS(=O)(=O)O)[C@@H](NC(C)=O)[C@H]([C@H](OS(=O)(=O)O)[C@@H](COS(=O)(=O)O)OS(=O)(=O)O)O1)OCCCCCCCCCCCCCCCCCCCCCC | MTT | >200 µM
COC(=O)[C@H]1CC[C@H]2[C@@H]3CC=C4CC(O)CC[C@]4(C)[C@H]3CC[C@]12C | - | 39.4 µM
COc1c(OCc2ccccc2)c(OCc2ccccc2)cc(CBr)c1-c1c(CBr)cc(OCc2ccccc2)c(OCc2ccccc2)c1OC | - | 30 µM
CC[C@H](C)[C@H](NC(=O)[C@H](C(C)C)[C@@H](O)[C@H](O)[C@H](CC1CCCCC1)NC(=O)[C@H](Cc1cnc[nH]1)NC(=O)COc1cccc2ccccc12)C(=O)NCc1ccccn1 | - | >100 µM
[N-]=[N+]=N[C@H]1C[C@H](n2cc(Br)c(=O)[nH]c2=O)O[C@@H]1CO | - | 590 µM
CCCCCCCCCCCCCCCCCCCCCCOCC(C)(COCCCCCCCCCCCCCCCCCCCCCC)CO[C@]1(C(=O)O)C[C@H](OS(=O)(=O)O)[C@@H](NC(C)=O)[C@H]([C@H](OS(=O)(=O)O)[C@@H](COS(=O)(=O)O)OS(=O)(=O)O)O1 | MTT | >100 µM
Nc1nc2c(ncn2[C@H]2C[C@H](O)[C@@H](CO)O2)c(=O)o1 | MTT | >500 µg/mL
Cc1cn([C@H]2C[C@H](N=[N+]=[N-])[C@@H](CO)O2)c(=O)[nH]c1=O | - | >50 µg/mL
CC(C)=CCOc1c2occc2cc2ccc(=O)oc12 | - | >100 µg/mL
Nc1ccn([C@@H]2O[C@H](CO)C[C@@H]2F)c(=O)n1 | - | >100 µM
CC(C)[C@H](NC(=O)OCc1ccccc1)C(=O)N[C@@H](Cc1ccccc1)[C@@H](O)[C@H](O)[C@H](Cc1ccccc1)NC(=O)[C@@H](NC(=O)OCc1ccccc1)C(C)C | trypan blue | 11 µM
COCCCCCCCCCCCC(=O)O | - | >100 µM
C[C@@H]1C[C@@H]([C@H](O)CC2CC(=O)NC(=O)C2)C(=O)[C@@H](C)C1 | - | 1 µg/mL
[N-]=[N+]=NCc1cccc(C(=O)CC(=O)C(=O)O)c1 | XTT | 400 µM
COc1cc([C@@H]2c3cc4c(cc3[C@@H](Nc3ccc(NC(=O)C56CCC(C)(C(=O)O5)C6(C)C)cc3)[C@H]3COC(=O)[C@H]23)OCO4)cc(OC)c1O | - | 0.018 µg/mL
CO[C@]1(C(=O)O)C[C@H](OS(=O)(=O)O)[C@@H](NC(C)=O)[C@H]([C@H](OS(=O)(=O)O)[C@@H](COS(=O)(=O)O)OS(=O)(=O)O)O1 | MTT | >200 µM

The first 4 rows once more:

compound | method | value
COC(=O)[C@H]1CC[C@H]2[C@@H]3CCC4=CC(=O)CC[C@]4(C)[C@H]3CC[C@]12C | - | 15.3 µM
Nc1nc2c(ncn2[C@@H]2C[C@H](CO)[C@@H](O)[C@H]2O)c(=O)o1 | MTT | >500 µg/mL
CC(C)[C@H](NC(=O)OCCN1CCCC1)C(=O)N[C@@H](Cc1ccccc1)[C@@H](O)[C@H](Cc1ccccc1)NC(=O)[C@@H](NC(=O)OCc1ccccc1)C(C)C | trypan blue | 21 µM
CCc1cn([C@H]2C[C@H](N=[N+]=[N-])[C@@H](CO)O2)c(=O)[nH]c1=O | - | 75 µM